From paper PMC12622350

Target: T1, NikR (Helicobacter pylori 26695) (UniProt O25896)
T1 sequence (looked up): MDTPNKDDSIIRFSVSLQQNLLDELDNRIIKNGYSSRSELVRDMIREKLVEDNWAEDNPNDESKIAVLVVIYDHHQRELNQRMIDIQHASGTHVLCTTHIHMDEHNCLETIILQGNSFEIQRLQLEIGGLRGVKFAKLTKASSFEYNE
Experiment: EMSA
Conditions: 5 mM H2O2; recombinant protein; residues 1-148; probe letters rebuilt from the primers and the genome

Sequence | binding result
TAAGCTTTTTTCTTTTTTTTTGATTTAATACTAGGTATAATTTTAATTCCACCTAACAAGGAAAAGCTATGAAAGTAACACAAGGCATTGCTAACGACTTTTTTGCCCTAACAAACACGA (double strand) [Probe-flgR 2] | binds
TAGCAATGTTTTGATTTACTAAGATTAACAGAAGCGTTCATTAACTAATTATTATTTAAAATGAATTAGTGTTATATCTTTGAAGCGCTATAAAATCGTTATTAGAAGTGCGTTTAATAC (double strand) [OPhp0073] | binds
TTGGGTTGATTTAACTCAAGCAAATTTTCTTCAATCCTAACAAATTTGGCTGCAAATTAAAAAATTTAAGCTTTTTTCTTTTTTTTTGATTTAATACTAGGTATAATTTTAATTCCACCT (double strand) [Probe-flgR 1] | binds

Construct, isoform or probe ends are uncertain for at least one entry. At least one verdict was read from the data and is not stated in words by the source. Tags and fusion partners may be left off the protein sequences shown.
